# HIV-1 5' UTR: DMS reactivities by position

RNA: 5' end of the HIV-1 NL4-3 genome, made in vitro. Positions 1-437 read:
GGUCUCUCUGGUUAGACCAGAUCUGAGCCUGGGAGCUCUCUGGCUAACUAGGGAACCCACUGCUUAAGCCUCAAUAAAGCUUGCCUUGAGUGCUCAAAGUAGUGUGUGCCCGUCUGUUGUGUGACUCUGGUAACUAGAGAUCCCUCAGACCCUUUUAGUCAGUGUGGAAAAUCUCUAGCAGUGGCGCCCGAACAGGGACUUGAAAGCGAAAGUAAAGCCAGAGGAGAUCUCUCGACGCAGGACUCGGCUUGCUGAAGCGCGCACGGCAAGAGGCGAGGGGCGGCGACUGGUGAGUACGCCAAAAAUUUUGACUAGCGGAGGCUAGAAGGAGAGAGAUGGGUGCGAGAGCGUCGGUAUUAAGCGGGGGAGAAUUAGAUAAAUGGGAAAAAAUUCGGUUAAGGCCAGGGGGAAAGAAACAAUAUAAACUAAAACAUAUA

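Mutant RNA libraries with 1G, 2G or 3G starts, with or without cap, were folded at 37 °C for 30 min. Monomer and dimer bands were cut from native gels after folding in high salt (300 mM KCl, 5 mM MgCl2) or low salt (40 mM KCl, 0.1 mM MgCl2). Gel slices were treated with 170 mM dimethyl sulfate for 15 min at 37 °C and read by mutational profiling against an ethanol control.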

Scale: normalised reactivity, A and C only; low values point to paired or protected bases, higher values to unpaired ones.
One numbering serves 1G, 2G and 3G.
A position is written with its base.

position,domain,1G capped high-salt monomer,3G capped high-salt monomer
A19,TAR,0.04,0.02
A26,TAR,0.14,0.07
C28,TAR,0.04,0.02
C44,TAR,0.04,0.02
A55,TAR,0.45,0.18
C58,PolyA,0.21,0.02
C63,PolyA,0.10,0.64
C69,PolyA,0.04,0.09
A74,PolyA,0.75,0.91
A76,PolyA,0.27,0.28
C95,PolyA,0.55,0.44
A96,PolyA,0.26,0.34
A97,PolyA,0.42,0.68
C114,none,0.26,0.18
C125,PAS,0.10,0.07
A136,PBS,0.11,0.10
A140,PBS,0.42,0.41
C142,PBS,0.08,0.08
A147,PBS,0.45,0.44
C150,PBS,0.07,0.05
A157,PBS,0.93,0.97
A161,PBS,0.49,0.51
A168,PBS,0.44,0.49
C179,PBS,0.76,0.96
A191,PBS,0.41,0.41
C199,PBS,0.48,0.46
A215,PBS,0.52,0.52
A220,antiPAS,0.35,0.33
C243,SL1,0.06,0.06
A255,SL1,0.47,0.48
A271,SL1,0.54,0.49
A286,SL2,0.54,0.52
C297,SL2,0.16,0.14
C300,none,0.08,0.11
A302,none,1.21,1.24
A303,none,0.08,0.07
A304,none,0.16,0.15
A314,SL3,0.04,0.03
A332,none,0.62,0.64
A347,none,0.27,0.21
C352,none,0.44,0.37
A356,none,1.03,0.84
A359,none,0.42,0.55
C362,none,0.31,0.53
A370,none,0.52,0.56
A386,none,1.33,1.39
C402,none,0.04,0.02
A404,none,0.20,0.18
A410,none,0.40,0.48
C417,none,0.95,0.86
A423,none,0.43,0.42
A425,none,0.53,0.52
C426,none,0.80,0.79
A430,none,0.55,0.55

Excerpt, the final 4 entries:

position	domain	1G capped high-salt monomer	3G capped high-salt monomer
A423	none	0.43	0.42
A425	none	0.53	0.52
C426	none	0.80	0.79
A430	none	0.55	0.55

From the data files of Ye et al. 2022, doi:10.1038/s41594-022-00746-2.